The values below come from patent US20070292426A1.

The target of test [1] is purified Stx1 (Shiga toxin type 1 holotoxin) (Escherichia coli) (UniProt P08026). Description: cell-based or functional assay. The conditions noted are these: scale: dilution factor.
Test [2] shares this target. The conditions noted are these: scale: fold dilution of the 13C4 MAb.

The substance murine 13C4 monoclonal antibody registered an inhibition of Stx1 binding to Gb3-coated plates in test [1] above 8000. This substance also had an IC50 (read off the curve) in test [2] of 1000.
